Results from the supplement of paper PMC3578754.
Fold change is the IC50 on the isolate divided by the IC50 on a reference virus; 1 = unchanged, higher = more resistant. Changes are given against the subtype B consensus. No active / inactive call. The values were gathered from many studies (numbered anew) with different assays, which the source does not name. Most viruses are clinical isolates; some are laboratory strains or clones with known resistance changes. Isolates with mixed residues are left out; stretches that were not sequenced show no change. Round top values that many isolates share are read here as limits; other very high values and 0.1 may be limits too.

What was measured:
Experiment in all cases: fold change of IC50 against reference virus; higher = more resistant
didanosine = compound: O=c1[nH]cnc2c1ncn2[C@H]1CC[C@@H](CO)O1 [didanosine]
Protocol: (§1)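 Cell-culture drug susceptibility tests of virus bearing the reverse transcriptase of each isolate, gathered from many studies.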

stavudine = compound: Cc1cn([C@H]2C=C[C@@H](CO)O2)c(=O)[nH]c1=O [stavudine]
Protocol: as §1

zidovudine = compound: Cc1cn([C@H]2C[C@H](N=[N+]=[N-])[C@@H](CO)O2)c(=O)[nH]c1=O [zidovudine]
Protocol: as §1

tenofovir = compound: C[C@H](Cn1cnc2c(N)ncnc21)OCP(=O)(O)O [tenofovir]
Protocol: as §1

efavirenz = compound: O=C1Nc2ccc(Cl)cc2[C@@](C#CC2CC2)(C(F)(F)F)O1 [efavirenz]
Protocol: as §1

nevirapine = compound: Cc1ccnc2c1NC(=O)c1cccnc1N2C1CC1 [nevirapine]
Protocol: as §1

delavirdine = compound: CC(C)Nc1cccnc1N1CCN(C(=O)c2cc3cc(NS(C)(=O)=O)ccc3[nH]2)CC1 [delavirdine]
Protocol: as §1

zalcitabine = compound: Nc1ccn([C@H]2CC[C@@H](CO)O2)c(=O)n1 [zalcitabine]
Protocol: as §1

abacavir = compound: Nc1nc(NC2CC2)c2ncn([C@H]3C=C[C@@H](CO)C3)c2n1 [abacavir]
Protocol: as §1

Row | Test System | fold change of IC50 against reference virus (didanosine) | fold change of IC50 against reference virus (stavudine) | fold change of IC50 against reference virus (zidovudine) | fold change of IC50 against reference virus (tenofovir) | fold change of IC50 against reference virus (efavirenz) | fold change of IC50 against reference virus (nevirapine) | fold change of IC50 against reference virus (delavirdine) | fold change of IC50 against reference virus (zalcitabine) | fold change of IC50 against reference virus (abacavir)
1 | HIV-1 isolate 74 (reverse transcriptase changes: Q174L V179I Y181C M184V V245M Q278S, study 15) | 1 | 0.6 | 0.2 | 0.4 | 0.6 | 61 | 21 | 1.5 | 2
2 | HIV-1 isolate 80 (reverse transcriptase changes: K102Q D123E R211K A272P K277R T286A P294S E297R, study 121) | 0.9 | 0.8 | 0.7 | 0.6 | 0.4 | 0.6 | 0.3 | 0.8 | 0.6
3 | HIV-1 isolate 188 (reverse transcriptase changes: D67N K70R K122E Q174R D177E I195M G196E Q207G F214L K219Q A288S, study 15) | 0.9 | 1.1 | 12 | 1.5 | 0.4 | 0.3 | 0.7 | 1.1 | 1
4 | HIV-1 isolate 203 (reverse transcriptase changes: M41L S48T D67N T69N K70R K122E M184V G196E H208Y T215F D218E K219Q V245M A272P A288T E297K, study 121) | 1.9 | 2.3 | 33 | 1.4 | 0.3 | 0.5 | 0.5 | 2.3 | 6.8
5 | HIV-1 isolate 212 (reverse transcriptase changes: V35M A62V D86E K103R D123E D177K V179D M184V I202V Q207A R211K V241I A288G, study 12) | 1.9 | 0.7 | 0.3 | 0.4 | 11 | 10 | 17 | 2.5 | 3.8
6 | HIV-1 isolate 220 (reverse transcriptase changes: V35Q T39A D67N S68G K70R D123E I135T I142V K166R D177E G196E E203D T215F K219E A272P K277R L283I A288T E297K, study 121) | 1.5 | 2.3 | 464 | 5.2 | 2.8 | 5.3 | 3 | 1.4 | 3.8
7 | HIV-1 isolate 246 (reverse transcriptase changes: P1L D67G S68G L74V Y115F D123E I135T I142V D177E M184V T200A T215F K219E V245E E297R, study 15) | 1.9 | 0.8 | 2.4 | 0.6 | 0.9 | 0.9 | 1.3 | 0.8 | 21
8 | HIV-1 isolate 341 (reverse transcriptase changes: V35T M41L K49R V60I D67N T69G A158S M184V G196E L210W T215Y Q278H T286A E297K, study 121) | 1.8 | 2 | 9.9 | 1.2 | 0.2 | 0.5 | 0.3 | 2.7 | 6.9
9 | HIV-1 isolate 352 (reverse transcriptase changes: T39A V60I D67N K70R K122E D123N Q174R D177E M184V I195M G196E E203K Q207G F214L K219Q A288S, study 15) | 1.5 | 1.4 | 2.8 | 1 | 0.4 | 0.4 | 0.7 | 1.4 | 4.8
10 | HIV-1 isolate 353 (reverse transcriptase changes: V60I F116Y K122E D123E I135V I142V Q151M T200A I202V F214L V245M K277R Q278E T286A I293V E297T, study 121) | 8.1 | 7.1 | 9.5 | 1.4 | 1.1 | 1.3 | 1.2 | 10 | 5
11 | HIV-1 isolate 381 (reverse transcriptase changes: T39A M41L E44D D67N K70R K122E I142V M184V I202V L210W R211K T215Y K219Q A288T, study 121) | 1.9 | 3 | 113 | 2.4 | 0.5 | 0.6 | 0.6 | 2.4 | 7.7
12 | HIV-1 isolate 440 (reverse transcriptase changes: P4S M41L A98G K122E D123N Y181C M184V G196E I202V L210W R211K T215Y L228R V245K A272P E297K, study 15) | 1.6 | 1.7 | 11 | 0.9 | 1.4 | 7.3 | 1 | 1.7 | 4.5
13 | HIV-1 isolate 447 (reverse transcriptase changes: K20R V60I K64R D67N K70R A98G I159L Q174R Y181C M184V E203K Q207E R211K F214L D218E K219E E224K A272P T286A, study 15) | 1.7 | 1.9 | 9.7 | 1.4 | 7.3 | ≥ 400 | 41 | 1.9 | 6.7
14 | HIV-1 isolate 451 (reverse transcriptase changes: R83K K103N V108I I135V T139K E169D Y181C G190A T200A Q207E T215Y V245Q, study 121) | 0.9 | 1.2 | 15 | 1.6 | 700 | ≥ 400 | ≥ 250 | 0.7 | 1.2
15 | HIV-1 isolate 461 (reverse transcriptase changes: D67N K70R L100I K102R K103N I135V I142V Q174H V179I G196E R211G F214L T215F K219Q A272S I293V E297A K311R, study 121) | 0.7 | 1.1 | 35 | 1.2 | 700 | 29 | ≥ 250 | 0.5 | 0.9
16 | HIV-1 isolate 477 (reverse transcriptase changes: T39A M41L E44D D67N K70R K122E I142V M184V I202V L210W R211K T215Y K219Q A288T, study 121) | 1.8 | 2.9 | 139 | 2.5 | 0.6 | 0.7 | 0.7 | 2.3 | 7.7
17 | HIV-1 isolate 493 (reverse transcriptase changes: V35I M41L K43Q V75A A98S K101S K102R D121Y K122E I135T V179E Y181C M184V T200A L210W T215Y K223Q L228R V245M A272P K275R K277R P294T, study 121) | 1.8 | 2.5 | 11 | 1.3 | 15 | ≥ 400 | 60 | 2.3 | 3.4
18 | HIV-1 isolate 540 (reverse transcriptase changes: M41L K49R K101P D123E Q174K E203K Q207E L210W R211K T215Y V241L A272P T286A, study 12) | 1.3 | 2.3 | 222 | 3.6 | 41 | 435 | 24 | 1.1 | 3.3
19 | HIV-1 isolate 549 (reverse transcriptase changes: M41L D67N V118I K122E L210W F214L T215Y A272P K277R, study 138) | 2.3 | 6.9 | 2400 | 5.6 | 0.1 | 0.3 | 0.1 | 2.2 | 6.6
20 | HIV-1 isolate 602 (reverse transcriptase changes: M41L D67N V75M K122E L210W F214L T215Y A272P K277R, study 138) | 1.1 | 2.3 | 241 | 2.5 | 0.3 | 0.5 | 0.3 | 0.9 | 2.3
21 | HIV-1 isolate 605 (reverse transcriptase changes: M41L K43N E44D D67N T69D A98S K103N V118I K122E I135V E138Q S162C G196E E203K Q207E H208Y L210W R211K T215Y Q278H T286A P294S, study 121) | 2.4 | 7.1 | 2400 | 6.1 | 5.6 | 29 | 9.2 | 2.2 | 7.3
22 | HIV-1 isolate 616 (reverse transcriptase changes: A98S K103N K122E M184V Q207E T215Y E297K, study 121) | 1.4 | 1.3 | 1.1 | 0.6 | 10 | 24 | 11 | 2.2 | 3.7
23 | HIV-1 isolate 662 (reverse transcriptase changes: V35I M41L K43Q D67G A98S K102Q D121Y K122E I135T V179E Y181C M184V I195M T200A L210W T215Y K223Q L228R V245M, study 121) | 1.7 | 2 | 1.9 | 0.8 | 3.7 | 280 | 15 | 2.2 | 4.8
24 | HIV-1 isolate 665 (reverse transcriptase changes: L100I K103N M184V L210W T215Y K219N, study 118) | 1.5 | 1.5 | 3.1 | 0.8 | 180 | 78 | 180 | 2.2 | 4.5
25 | HIV-1 isolate 677 (reverse transcriptase changes: D67N T69D K70R V90I K103N K122E I135T S162A T215F K219Q L228H V245T D250E, study 15) | 1.4 | 1.8 | 281 | 3.2 | 43 | 124 | 800 | 1.8 | 3.4
26 | HIV-1 isolate 696 (reverse transcriptase changes: E6D V60I G196E T200I E203D, study 15) | 0.9 | 1.2 | 0.9 | 0.8 | 0.5 | 0.5 | 0.6 | 1.2 | 1.1
27 | HIV-1 isolate 756 (reverse transcriptase changes: R83K K103N I135V E169D Y181C G190A T200A Q207E T215Y K238N V245E, study 121) | 0.9 | 1.5 | 3 | 0.9 | 700 | ≥ 400 | ≥ 250 | 0.7 | 1.2
28 | HIV-1 isolate 767 (reverse transcriptase changes: K65R T69D K70R Y181C G190A, study 118) | 1.5 | 1.6 | 0.2 | 1.2 | 3.5 | 180 | 0.6 | 1.9 | 3.6
